Tested on: VanA VRE (E. faecalis BM4166 and E. faecium ATCC BAA-2317)
Assay: Resistance development study (serial passaging at 0.5×MIC)
Assay type: cell-based, Enterococcus faecalis; Enterococcus faecium
Conditions: 0.5×MIC serial exposure, MICs monitored daily

## CCCCCCCCCCCCCC[N+](C)(C)CCCNC(=O)[C@H]1NC(=O)[C@H]2NC(=O)[C@@H](NC(=O)[C@@H]3NC(=O)[C@H](CC(N)=O)NC(=O)[C@H](NC(=O)[C@@H](CC(C)C)NC)[C@H](O)c4ccc(c(Cl)c4)Oc4cc3cc(c4OC3OC(CO)C(O)[C@H](O)[C@@H]3O[C@H]3CC(C)(N)[C@H](O)[C@H](C)O3)Oc3ccc(cc3Cl)[C@H]2O)c2ccc(O)c(c2)-c2c(O)cc(O)cc21 (stereo partly shown) [Compound 12]
  emergence of resistance on serial passaging: emerged most rapidly and was pronounced
